This passage reports inhibition results from PubChem BioAssay AID1903 (Southern Research Specialized Biocontainment Screening …, 2009).

The chains behind the UniProt entries cited, without tags or fusion partners.
UniProt P03070, whole entry, looked up: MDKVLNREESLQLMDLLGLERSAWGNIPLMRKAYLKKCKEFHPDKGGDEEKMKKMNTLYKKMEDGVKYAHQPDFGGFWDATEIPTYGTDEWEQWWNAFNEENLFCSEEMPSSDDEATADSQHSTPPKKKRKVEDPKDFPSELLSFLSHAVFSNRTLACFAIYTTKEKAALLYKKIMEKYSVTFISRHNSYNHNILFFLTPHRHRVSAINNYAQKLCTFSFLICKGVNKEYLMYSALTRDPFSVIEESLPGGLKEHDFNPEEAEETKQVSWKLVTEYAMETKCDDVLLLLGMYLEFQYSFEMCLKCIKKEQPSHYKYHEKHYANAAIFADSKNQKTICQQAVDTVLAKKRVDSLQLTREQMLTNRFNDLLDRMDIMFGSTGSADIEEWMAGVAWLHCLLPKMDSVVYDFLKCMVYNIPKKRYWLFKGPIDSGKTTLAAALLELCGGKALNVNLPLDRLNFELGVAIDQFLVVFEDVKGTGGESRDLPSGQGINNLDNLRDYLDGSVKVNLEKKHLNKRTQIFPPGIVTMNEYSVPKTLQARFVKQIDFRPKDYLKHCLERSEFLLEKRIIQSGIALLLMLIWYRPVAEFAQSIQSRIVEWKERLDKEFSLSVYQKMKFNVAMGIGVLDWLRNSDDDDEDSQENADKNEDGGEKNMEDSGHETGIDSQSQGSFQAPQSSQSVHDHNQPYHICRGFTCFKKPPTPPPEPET

Where “and” joins values, the source holds several entries; their conditions need not be identical. Identical values can stand only once. Some of the results follow. Entries with a potency or affinity are not part of this list. Calls of active or inactive are those of the source. No rule for the calls is given here.

In this assay the target is Large T antigen (Simian virus 40) (UniProt P03070). The assay can be described thus: SV40 large T antigen inhibitors, biochemical (AID 1903). As to conditions: SV40 large T antigen ATPase/helicase inhibition assay; at 20 µM; stronger effect = higher value.
As a reminder, the inhibition is the relative decrease from the control value, in per cent. Turning to `Cc1ccc(C(=O)OC2CN3CCC2CC3)cc1` (configuration not stated), the inhibition was inactive: 6.98%.
For `CC1CCC(C(C)C)C(OP(=O)(Nc2ccccn2)c2ccccc2)C1` (configuration not stated), the inhibition is inactive: 4.39%.
Consider `Cc1nn(-c2ccccc2)c2c1P(=O)(N1CCOCC1)N(C)C(c1ccccc1)=N2` (configuration not stated), for which the inhibition is inactive: 8.29%.
Next, `O=C(/C=C/c1ccccc1)OC1CN2CCC1CC2` (configuration not stated): inactive: 8.86%; `CN(C)C1(CNC(=O)c2ccc(S(C)(=O)=O)cc2)CCCCC1`: inactive: -8.8%.
Next, `O=P1(Nc2ncccn2)COc2ccccc2OC1`: inactive: 2.11%; `O=P1(Nc2ccc(Br)cn2)COc2ccccc2OC1`: inactive: 20.6%; `O=[As](O)(c1cccs1)c1cccs1`: inactive: 5.47%.
The result for `Cc1ccc(OCC(=O)OC2CN3CCC2CC3)cc1` (configuration not stated) reads inactive: 3.58%.
On to `Nc1cccc([As](=O)(O)c2ccccc2)c1`, for which the inhibition is inactive: 1.96%.
On to `CN(CCCl)Cc1cc(Cl)c(NC2=NCCN2)c(Cl)c1`, for which the inhibition is inactive: 32.9%.
The result for `CCOP(=O)(Nc1ccc(C)cn1)OCC` reads inactive: 1.34%.
Consider `CCOP(=O)(NC(=NC(C)c1ccccc1)NC(C)c1ccccc1)OCC` (configuration not stated), for which the inhibition is inactive: 12.5%.
Next, `CCC1=CC2Cc3nc4ccc(Cl)cc4c(N)c3C(C1)C2` (configuration not stated): inactive: 4.01%; `O=P1(Nc2ccccn2)COc2ccccc2OC1`: inactive: 19.3%; `CC(C)(C)C(=O)NC(Sc1ncccn1)C(Cl)(Cl)Cl` (configuration not stated): inactive: 21.1%.
The result for `Clc1n[nH]nc1-c1nn[nH][15n]1` reads inactive: 9.01%; that for `COc1ccccc1CNC(=O)COC(=O)C(O)(c1ccccc1)c1ccccc1`, inactive: 5.94%.
The result for `O=[As](O)(c1ccccc1Br)c1ccccc1Br` reads inactive: 3.61%; that for `CC(C)/C=N\N=C(\N)N[N+](=O)[O-]`, inactive: 3.33%.
`CS(=O)(=O)c1ccc(Cl)c(NC(=O)COC(=O)C(O)(c2ccccc2)c2ccccc2)c1`: the inhibition was inactive: 9.61%.
The result for `COc1cc(C(=O)NCC2(N3CCOCC3)CCCCC2)cc(Cl)c1OC(C)C` reads inactive: 24.3%.
The result for `O=[As](O)(O)c1cccnc1` reads inactive: 7.88%.
Next, `O=C(OC1CN2CCC1CC2)c1ccc(Cl)cc1` (configuration not stated): inactive: 12.7%; `O=[As](O)(c1cccc(O)c1)c1cccc(O)c1`: inactive: 15.3%; `Cc1cccc(OCC(=O)OC2CN3CCC2CC3)c1` (configuration not stated): inactive: -3.56%.
As for `CCCOP(=S)(Nc1nc(N)cc(=O)[nH]1)OCCC`, the inhibition is inactive: 7.72%.
On to `Cc1ccc(NCCc2c([N+](=O)[O-])cc([N+](=O)[O-])cc2[N+](=O)[O-])cc1`, for which the inhibition is inactive: 10.4%.
Next, `CCOP(=O)(Nc1cccc2ccccc12)OCC`: inactive: 1.1%; `COc1cc(C2NCCC3(OCCO3)C2(C)C)cc(OC)c1OC` (configuration not stated): inactive: 3.42%.
Next, `O=P(Nc1nccs1)(c1ccccc1)c1nc2ccccc2s1` (configuration not stated): inactive: 8.52%; `O=P(Nc1nccs1)(Oc1ccccc1)Oc1ccccc1`: inactive: 10.7%.
Turning to `CCOP1(=S)c2c(C)nn(CCC#N)c2N=C(c2ccccc2F)N1C` (configuration not stated), the inhibition was inactive: 7.26%.
Regarding `O=C(O)COc1ccc([As](=O)(O)O)cc1[N+](=O)[O-]`, the inhibition was inactive: 11.1%.
As for `Nc1ccccc1[As](=O)(O)c1ccccc1`, the inhibition was inactive: 1.96%.
`NC(=O)Nc1ccc([As](=O)(O)O)cc1`: the inhibition was inactive: 10.8%.
Consider `CN(C(=O)Cc1ccc(Cl)c(Cl)c1)[C@H]1CC[C@@]2(CCCO2)C[C@@H]1N1CCCC1`, for which the inhibition is inactive: 29.2%.
Next, `CN(C)C(=O)c1cc([N+](=O)[O-])cc2c1-c1c(cc([N+](=O)[O-])cc1[N+](=O)[O-])C2=O`: inactive: 38.3%; `O=[N+]([O-])c1ccc2c(c1)nnn2O`: inactive: -0.26%; `CCOP1(=S)c2c(C)nn(CCC#N)c2N=C(c2ccc(F)cc2)N1C` (configuration not stated): inactive: -1.26%.
With `CN(C(=O)Cc1ccccc1)[C@@H]1CC[C@]2(CCCO2)C[C@H]1N1CCCC1`, the inhibition was inactive: 1.86%.
Next, `N#CCCN(C(=O)COC(=O)C(O)(c1ccccc1)c1ccccc1)c1ccc(F)cc1`: inactive: 12.8%; `O=[As](O)(c1ccc(O)cc1)c1ccccc1O`: inactive: -1.12%.
On to `C[As](=O)(O)c1cccc(C(=O)O)c1`, for which the inhibition is inactive: 0.98%.
Take `Cc1ccc2nc3c(c(C)c2c1)CC(C(Cl)Cl)S3` (configuration not stated): the inhibition is inactive: 14.9%.
The result for `Cc1ccc(OP(=O)(Nc2ccc([N+](=O)[O-])cn2)Oc2ccc(C)cc2)cc1` reads inactive: 13.8%; that for `CC(C)c1ccc(OP(=O)(Nc2ccccn2)Oc2ccccc2F)cc1` (configuration not stated), inactive: 4.77%.
Next, `ClCCSc1nnc(-c2cccnc2)o1`: inactive: 3.93%.
The result for `O=[N+]([O-])c1cc([N+](=O)[O-])c(-c2ccn[nH]2)s1` reads inactive: 4.45%.
Take `CCN(CC)C(=S)SC(NC=O)C(Cl)(Cl)Cl` (configuration not stated): the inhibition was inactive: 6.47%.
The result for `CC(C)NC(=O)NP(=O)(Oc1ccccc1)Oc1ccccc1` reads inactive: 6.19%; that for `Cc1cc(=O)[nH]c(N[N+](=O)[O-])n1`, inactive: 2.24%.
On to `O=C(OC1CN2CCC1CC2)C12CC3CC(CC(C3)C1)C2` (configuration not stated), for which the inhibition is inactive: -1.47%.
Next, `Cc1c2c(nc3ccccc13)SC(C(Cl)Cl)C2` (configuration not stated): inactive: 11.4%.
Consider `COc1cc(I)ccc1[As](=O)(O)O`, for which the inhibition was inactive: 13.9%.
The result for `COc1ccc2nc(NP(=O)(c3ccccc3)c3ccccc3)sc2c1` reads inactive: 12.3%; that for `COc1ccc(N/C(=N/P(=O)(N2CCOCC2)N2CCOCC2)N2CCOCC2)cc1`, inactive: 13%; that for `COP1(=S)c2c(C)nn(CCC#N)c2N=C(c2ccc(F)cc2)N1C` (configuration not stated), inactive: -0.18%.
Next, `O=C(Nc1ccncc1[N+](=O)[O-])c1ccc([N+](=O)[O-])cc1[N+](=O)[O-]`: inactive: 3.95%.
The result for `O=C(COc1ccccc1)OC1CN2CCC1CC2` (configuration not stated) reads inactive: -4.33%.
On to `CCOC(=O)c1ccc(NC(=O)C(C)(CCl)SC)cc1` (configuration not stated), for which the inhibition is inactive: 24.4%.
The result for `O=C(OC1CN2CCC1CC2)c1cccc([N+](=O)[O-])c1` (configuration not stated) reads inactive: 2.68%; that for `CCC(C)N(CC(C)C)C(=S)SC(NC(C)=O)C(Cl)(Cl)Cl` (configuration not stated), inactive: 23.5%; that for `CCOC(=O)Nc1ccc([As](=O)(O)O)c(O)c1`, inactive: 7.13%.
Consider `Cc1cc(SC(NC(=O)c2ccccc2)C(Cl)(Cl)Cl)nc(C(C)C)n1` (configuration not stated), for which the inhibition was inactive: 18.7%.
`CCOC(=O)Nc1cccc([As](=O)(O)O)c1`: the inhibition was inactive: 0.195%.
Next, `O=[N+]([O-])c1ccc(Nc2ccc(Oc3ccc([N+](=O)[O-])cc3[N+](=O)[O-])cc2)c([N+](=O)[O-])c1`: inactive: 7.37%; `Cc1cc(SC(NC=O)C(Cl)(Cl)Cl)ncn1` (configuration not stated): inactive: 7.21%; `O=P(Nc1ccccn1)(c1cccc2ccccc12)c1cccc2ccccc12`: inactive: 11.2%.
As for `O=C(Nc1cc([As](=O)(O)O)ccc1O)c1ccccc1`, the inhibition is inactive: 1.76%.
The result for `O=[N+]([O-])c1ncn(CCn2ncnc2[N+](=O)[O-])n1` reads inactive: 3.17%; that for `O=[N+]([O-])c1cccc(NC2=NCC(CBr)S2)c1` (configuration not stated), inactive: 24.1%.
On to `O=C(O)CNc1ccc([As](=O)(O)O)cc1`, for which the inhibition is inactive: 2.75%.
`COc1ccc(C2=NCC(CBr)S2)cc1` (configuration not stated): the inhibition is inactive: 5%.
The result for `CC(=O)N1C2C3N(C(C)=O)C1C1N(C(C)=O)C(C(N1C(C)=O)N3C(C)=O)N2C(C)=O` reads inactive: -5.94%; that for `O=[N+]([O-])c1cccc2n[nH]nc12`, inactive: 8.11%.
Next, `O=[N+]([O-])c1cc([N+](=O)[O-])c(CCNc2ccccc2)c([N+](=O)[O-])c1`: inactive: 16.3%; `CCc1nc2c(n1)c1c(non1O)c1c2no[n+]1[O-]`: inactive: 24.8%.
Next, `Cc1ccc(NP(=O)(Oc2ccccc2)Oc2ccccc2)nc1`: inactive: 0.12%.
With `Nc1ccc([As](=O)(O)c2ccc(N)cc2)cc1`, the inhibition was inactive: -15.7%.
The result for `CCN(/C(=N/P(=O)(N1CCOCC1)N1CCOCC1)N1CCOCC1)c1ccc(OC)cc1` reads inactive: 2.26%; that for `CN(C)C(=O)OCCc1n(C)cc[n+]1C`, inactive: 6.85%; that for `CC(C)=N/N=C(\N)N[N+](=O)[O-]`, inactive: -1.08%.
Turning to `CC1CCN(C(=O)Oc2c(Cl)cc(Cl)c3cccnc23)CC1`, the inhibition was inactive: -1.69%.
Next, `NC(=O)c1cc([N+](=O)[O-])cc([N+](=O)[O-])c1N`: inactive: 20.9%.
`Cc1ccc(N/C(=N/P(=O)(N2CCOCC2)N2CCOCC2)N2CCOCC2)cc1`: the inhibition was inactive: 9.98%.
For `Cc1ccc(OP(=O)(Nc2nccs2)Oc2ccc(C)cc2)cc1`, the inhibition was inactive: 13.7%.
Next, `Clc1ccc(Cl)c(NC2=NCC(CBr)S2)c1` (configuration not stated): inactive: 28.8%.
Take `CN1CCCC(OC(=O)C(c2ccccc2)c2ccccc2)C1` (configuration not stated): the inhibition was inactive: -0.05%.
Turning to `CC(C)CC(=O)NC(Sc1ccc(Cl)cc1)C(Cl)(Cl)Cl` (configuration not stated), the inhibition was inactive: 3.15%.
Next, `Nc1cc(N)c2nonc2c1[N+](=O)[O-]`: inactive: 23.6%.
Next, `O=C(NC(Sc1ccncn1)C(Cl)(Cl)Cl)c1ccccc1` (configuration not stated): inactive: 7.4%; `Oc1ccccc1CNc1ccccn1`: inactive: 1.96%.
As for `O=C(O)c1ccccc1[As](=O)(O)O`, the inhibition was inactive: 4.31%.
Next, `CC(=O)Nc1ccc([As](=O)(O)O)cc1`: inactive: 14.6%; `O=P(Nc1nc2ccc(Cl)cc2s1)(c1ccccc1)c1ccccc1`: inactive: 6.88%; `Cc1ccc(NP(=O)(Oc2ccccc2F)Oc2ccccc2F)nc1`: inactive: 11%.
The result for `CCOP(=O)(Nc1ccccc1)OCC` reads inactive: 10.4% and inactive: 8.85%; that for `Cc1cc(SC(NC(=O)c2ccc(F)cc2)C(Cl)(Cl)Cl)ncn1` (configuration not stated), inactive: 19.2%; that for `O=[N+]([O-])c1cc([N+](=O)[O-])c(CCN2CCOCC2)c([N+](=O)[O-])c1`, inactive: 36.9%.
As to `CCN(N=Nc1nonc1N)c1nonc1N`, the inhibition was inactive: 25.2%.
Next, `Nc1cccc2ccc([As](=O)(O)O)cc12`: inactive: 10%.
